Pooled drug test results. Numbers come from NIAID ChemDB, via PubChem.

All rows: growth or infection tests; species: Herpes simplex virus 1

Blank or dashed fields: not listed here.

structure | strain | cell line | method | read-out | dose | result
O=C(O)P(=O)(O)O | 90155 | SIRC | plaque count | inhibition | 100 µM | 95%
Nc1nc(N)c2ncn(CCOCP(=O)(O)O)c2n1 | KOS PFA-resistant | HEL | cytopathic effect | EC50 |  | 27.6 µg/mL
O=C(OCc1ccccc1)P(=O)(O)OC[C@H]1O[C@@H](n2cc(CCCl)c(=O)[nH]c2=O)C[C@@H]1O | TK- | VERO | cytopathic effect | inhibition | 20.5 µM | >25%
NCCOP(=O)(O)OC[C@H](O)CO | KOS | HeLa | cytopathic effect | EC50 |  | >200 µg/mL
Nc1ccn(C[C@@H](CO)OCP(=O)(O)O)c(=O)n1 | KOS PMEDAP-resistant | HEL | cytopathic effect | EC50 |  | 0.34 µg/mL
COc1cc2c(cc1OC)[C@@]13CCN4CC5=CCO[C@H]6CC(=O)N2[C@H]1[C@H]6[C@H]5C[C@H]43 | KOS | HeLa | cytopathic effect | EC50 |  | >200 µg/mL
O=c1[nH]c(=O)n([C@H]2C[C@H](O)[C@@H](CO)O2)cc1/C=C/Br | KOS | HEL | cytopathic effect | EC50 |  | 0.007 µg/mL
O=C(CP(=O)(O)O)OC[C@H]1O[C@@H](n2cc(CCCl)c(=O)[nH]c2=O)C[C@@H]1O | TK- | VERO | cytopathic effect | inhibition | 72.7 µM | >25%
CN(CC(=O)O)NC(=O)CC(N)CC(O)CN | KOS | HeLa | cytopathic effect | EC50 |  | >200 µg/mL
COP(=O)(CC(=O)O[C@H]1C[C@H](n2cc(CCCl)c(=O)[nH]c2=O)O[C@@H]1CO)OC | BRAND | VERO | cytopathic effect | inhibition | 0.7 µM | >25%
Nc1ncnc2c1ncn2CCOCP(=O)(O)O | PMEA-resistant-1 | HeLa | virus yield | EC90 |  | >2000 µM
CCOC(=O)CP(=O)(OC)OC[C@H]1O[C@@H](n2cc(I)c(=O)[nH]c2=O)C[C@@H]1O | BRAND | VERO | cytopathic effect | inhibition | 1.9 µM | >25%
C[C@H](CCC(=O)NCCS(=O)(=O)O)[C@H]1CC[C@H]2[C@@H]3[C@H](O)C[C@@H]4C[C@H](O)CC[C@]4(C)[C@H]3C[C@H](O)[C@]12C | KOS | HeLa | cytopathic effect | EC50 |  | >200 µg/mL
COC(=O)P(=O)(O)OC[C@H]1O[C@@H](n2cc(CCCl)c(=O)[nH]c2=O)C[C@@H]1O | TK- | VERO | cytopathic effect | inhibition | 242 µM | >25%
CN[C@@H]1[C@@H](O)[C@@H](O[C@@H]2[C@@H](O)[C@H](O[C@H]3O[C@H]([C@H](C)N)[C@@H](O)[C@H](O)[C@H]3N)[C@@H](N)C[C@H]2N)OC[C@]1(C)O | KOS | HeLa | cytopathic effect | EC50 |  | >100 µg/mL
O=C(O)P(=O)(O)O | PMEA-resistant-1 | HeLa | virus yield | EC90 |  | 3000 µM
Nc1ncc2c(ncn2COC(CO)CO)n1 | KOS S2242-resistant | HEL | cytopathic effect | EC50 |  | 1.1 µg/mL
O=C(O)CP(=O)(O)O | 11-Aug | SIRC | plaque count | inhibition | 500 µM | >99.9%
Cc1cn([C@@H]2O[C@H](CO)[C@@H](O)[C@@H]2O)c(=O)[nH]c1=O | KOS HPMPA-resistant | HEL | cytopathic effect | EC50 |  | 0.076 µg/mL
O=c1[nH]c(=O)n([C@H]2C[C@H](O)[C@@H](CO)O2)cc1I | TK- | VERO | cytopathic effect | inhibition | 8.4 µM | >25%
O=C(O)P(=O)(O)O | KOS S2242-resistant | HEL | cytopathic effect | EC50 |  | 110.8 µg/mL
CCOC(=O)P(=O)(OCCOCn1cnc2c(=O)[nH]c(N)nc21)OC(C)C | L2 | VERO | cytopathic effect | EC95 |  | 0.77 µM

For reference, 3 entries again:

structure	strain	cell line	method	read-out	dose	result
NCCOP(=O)(O)OC[C@H](O)CO	KOS	HeLa	cytopathic effect	EC50		>200 µg/mL
CN(CC(=O)O)NC(=O)CC(N)CC(O)CN	KOS	HeLa	cytopathic effect	EC50		>200 µg/mL
O=C(OCc1ccccc1)P(=O)(O)OC[C@H]1O[C@@H](n2cc(CCCl)c(=O)[nH]c2=O)C[C@@H]1O	TK-	VERO	cytopathic effect	inhibition	20.5 µM	>25%

Inhibition is in % at the dose shown (toxicity tests: loss of growth or viability). Rows are shuffled and stem from different studies. ECn is the concentration giving n% inhibition of infection, replication or growth.